We go through one substance from patent publication US12559545.

The target of the test is NiVM RBP on live Nipah virus Malaysia (P3 stock with N277K polymorphism) (Nipah virus, strain Malaysia). In words: cell-based or functional assay.

HENV-26 (antibody) had an Area under the curve (neutralization) of 293 and an IC50, plaque reduction neutralization of live virus of 0.04 µg/mL.
